From ChEMBL document CHEMBL3988442, “University of Dundee, Small-Polar-MMV Screening Library” (2021).

The filed quantity is “Percent Effect” (%). How 0% and 100% were set is not recorded. Most values in the screen are low, and negative values occur. Many other results are left out here, so strong results are more common than in the screen. Two or more numbers in one place are separate tests of the same structure; such repeats can differ widely. A dash means the value is not listed here; it may have been measured.

Mtb glucose medium: 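Growth of Mycobacterium tuberculosis over 3 days (7H9 medium with glucose and tyloxapol); the read-out is not stated. Tested at 50 µM. The record gives no direction; compounds that gave an IC50 in retests scored well above the rest, so higher reads as more growth inhibition. Of about 69,000 compounds tested this way, about 760 (1.1%) reached 50% or more in at least one test.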
Mtb cholesterol medium: 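Growth of Mycobacterium tuberculosis over 4 days (cholesterol / DPPC medium with tyloxapol); the read-out is not stated. Tested at 50 µM. Higher reads as more growth inhibition (inferred: compounds with an IC50 in retests scored well above the rest). About 69,000 compounds were tested under these conditions; 0.54% (about 370) showed 50% or more at least once.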

| # | compound | Mtb glucose medium | Mtb cholesterol medium |
|---|---|---|---|
| 1 | `[H][C@@]12C[C@@H](Oc3cccnc3)CN1CCN(C(=O)c1cccn1C)C2` | - | 52.39% |
| 2 | `Fc1cccc(CN2CCC(c3noc(-c4ccccn4)n3)CC2)c1F` | 17.87% | - |
| 3 | `O=C(NCc1csc(Br)c1)c1ccc(=O)[nH]n1` | -21.68% | -20.51% |
| 4 | `O=C(NCCNc1ccccn1)NC1CCCC1` | 1.314% and 3.309% | -15.19% |
| 5 | `CNC(=O)CN(C)C(=O)c1cc2ccccc2cc1OC` | 15.23% | - |
| 6 | `CC(C)[C@@H]1CN(Cc2cnc(C3CCCCC3)nc2)C[C@H]1N(C)C` | -25.69% | - |
| 7 | `CC(C)Oc1ccc(CSc2nnc(CN3CCCC3=O)o2)cc1` | 63.66% | 56.34% |
| 8 | `COc1ccc(COCC(=O)N2CCCC(n3cncn3)C2)cc1` (centres unmarked) | 108.8% | - |
| 9 | `O=C(O)C(F)(F)F.O=C(O)C(F)(F)F.[H][C@@]12CN(Cc3ccncc3)C[C@]1([H])C(=O)N(c1ccsc1)C2` | -3.115% | - |
| 10 | `CN(C)C(=O)CCNC(=O)Nc1cccc(Cl)c1-n1cccn1` | -13.85% | - |
| 11 | `CNC(=O)[C@@H]1C[C@@H](N)CN1c1nnc(-c2ccccc2)s1` | -7.306% and -0.3358% | - |
| 12 | `O=C(OCCNc1ncccn1)c1ccc(Cl)s1` | 56.49% | - |
| 13 | `Cc1cccc(CC(=O)N2CCN(c3nccn3C)CC2)c1.Cl` | 8.946% | - |
| 14 | `Cc1nc(NC(=O)CCOCC(F)(F)F)ccc1Br` | 30.29% | - |
| 15 | `COc1ccc(CNCC2CCN(c3ccccc3OC)C2)cc1O` (centres unmarked) | 32.84% and 6.017% | - |
| 16 | `c1cc(CN2CCCC(c3nnc(-c4cnccn4)o3)C2)ccn1` (centres unmarked) | - | 0.703% |
| 17 | `CCCC(=O)Nc1ccc(CC(=O)N(CC)CC2CCCCO2)cc1` (centres unmarked) | -18.67% | -31.73% |
| 18 | `CCOc1cccc(C(=O)NCCC(=O)Nc2ccncc2)c1` | -5.317% and -2.146% | - |
| 19 | `CCc1cnc(N)nc1NC(C)c1ccc(C)c(C)c1` (centres unmarked) | 75.18% | 59.67% |
| 20 | `NCCn1nc(C2CCN(C(=O)Cc3ccccc3)C2)c2nccnc21` (centres unmarked) | - | 58.99% |
| 21 | `CC(CNC(=O)c1cc(C2CC2)on1)N1CCc2ccccc21` (centres unmarked) | 57.18% | - |
| 22 | `CC(=O)N(c1ccc(F)cc1)c1nc(CN2CCCC2C(C)C)cs1` (centres unmarked) | 57.76% | - |
| 23 | `NC(=O)NC1CCN(Cc2ccc(Br)c(F)c2)CC1` | -2.555% and -1.2% | 0.568% |
| 24 | `O=C(c1csc(-c2nnc[nH]2)n1)N1CCCCC1Cn1cccn1` (centres unmarked) | - | 10.88% |
| 25 | `Cc1ccc(CCCC(=O)N2CC(=O)Nc3cccnc32)s1` | 2.641% and 7.002% | -0.3991% |
| 26 | `O=C1CCNc2ncc(-c3ccccc3Cl)cc2CN1C1CC1` | 35.5% | - |
| 27 | `CC[C@@H](c1ccccc1)n1c(CCN)n[nH]c1=O` | 22.69% | - |
| 28 | `[H][C@]12CC[C@]([H])(CN(S(C)(=O)=O)C1)N(C(=O)CCc1n[nH]c3c1CCCC3)C2` | -11.95% | - |
| 29 | `CN(Cc1nnc(-c2cccs2)o1)Cc1nc2c(s1)CCCC2` | 24.88% | - |
| 30 | `O=C(NCc1ccco1)Nc1cccc(S(=O)(=O)C(F)F)c1` | 2.705% | 2.751% |
| 31 | `Cc1nc(CN2CCCC(CCc3ccc(F)c(F)c3)C2)c[nH]1` (centres unmarked) | 46.73% | 26.07% |
| 32 | `CC(=O)N1CCCc2ccc(S(=O)(=O)N3CCCCC3C)cc21` (centres unmarked) | 7.973% | - |
| 33 | `O=C(O)C(F)(F)F.c1cnc(N2CC[C@@H](OCC3CC3)[C@@H]2Cc2cccnc2)nc1` | - | 51.57% |
| 34 | `Cc1cc(C2CCCN(C(=O)c3c(C)noc3C)C2)n[nH]1` (centres unmarked) | -3.421% and 53.88% | - |
| 35 | `Cc1cc(CCC(=O)NCc2ncc[nH]2)ccc1Br` | 6.642% | - |
| 36 | `Cc1cc(C)n(CCCn2cncc2-c2ccc3c(c2)CC(C)N3C)n1.Cl` (centres unmarked) | 35.05% | 23.79% and 28.5% |
| 37 | `c1cc(-c2cncnc2)cc(-c2ccn(CC3CCNC3)n2)c1` (centres unmarked) | 16.69% | 22.28% |
| 38 | `Cc1csc(N2CCCN(CCC(=O)NC(N)=O)CC2)n1` | 77.5% | - |
| 39 | `CCc1noc(CNc2cc3c(cc2Cl)OCCCO3)n1` | 38.11% and 25.23% | - |
| 40 | `O=C(c1ccc(O)c(Cl)c1)N1CCN(c2nccs2)CC1` | -7.199% | - |
| 41 | `CCCN1CCCC2(CCN(Cc3noc(C4CCCC4)n3)C2)C1=O` (centres unmarked) | - | -26.65% and 8.146% |
| 42 | `CCCOc1cc(CNC(=O)Nc2cccc(C(C)=O)c2)ccn1` | 27.97% | 13.51% |
| 43 | `NC(=O)CNC(c1ccccc1)c1ccc(OC(F)F)cc1` (centres unmarked) | 2.603% and -1.4% | -17.36% |
| 44 | `COc1cccc(COCC(=O)N2CCCC(n3cncn3)C2)c1` (centres unmarked) | -7.09% | - |
| 45 | `CCOC(=O)c1c(NC(=O)CN2CCN(C(C)=O)CC2)sc(C)c1C` | 11.37% | -13.33% |
| 46 | `CC(C)N(C)C(=O)COc1ccc(-c2noc(C3CCCO3)n2)cc1` (centres unmarked) | 9.637% | - |
| 47 | `Cc1cnn(C2CN(Cc3noc(C4CC4)n3)C2)c1` | 2.973% | 3.343% |
| 48 | `NS(=O)(=O)CCN1CCN(c2ccccc2O)CC1` | 0.07625% | -5.32% and -6.953% |
| 49 | `CC(NC(=O)CCn1cccn1)c1cccs1` (centres unmarked) | 9.081% | -3.666% |
| 50 | `Cc1ncc2c(n1)CCCC2NC(=O)c1ccncc1` (centres unmarked) | -53.07% | - |
| 51 | `O=C(c1ccc(Cl)o1)N1CCCN(Cc2cscn2)CC1` | - | -5.198% |
| 52 | `Cc1ccc(Cl)c(CN2CCC(c3nccn3C(C)C)CC2)c1F` | 20.33% | - |
| 53 | `CN(Cc1nc(CC2CC2)no1)CC1COc2ccccc2O1` (centres unmarked) | - | 43.67% |
| 54 | `CC(C)n1ccnc1C1CCN(Cc2ccc(Cl)s2)CC1` | 54.43% | - |
| 55 | `Cc1nc(C2CCCN(C(=O)c3ccoc3)C2)no1` (centres unmarked) | -3.59% | - |
| 56 | `Cc1ccc(CN2CCOC3(CCN(C(=O)C4CCOC4)CC3)C2)cc1.O=C(O)C(F)(F)F` (centres unmarked) | 9.782% and 8.955% | 13.17% |
| 57 | `OC1(CN2CCN(c3cccc(C(F)(F)F)c3)CC2)CNCCOC1` (centres unmarked) | - | 30.09% |
| 58 | `Cc1ccc(-c2nc(CN3CCOC(c4ccccc4)C3)cs2)o1` (centres unmarked) | 51.2% | - |
| 59 | `Fc1ccccc1CN1CCC[C@@H](Cn2nnc(-c3cccs3)n2)C1` | 51.28% | 29.94% and 38.06% |
| 60 | `COc1ccc(C(=O)N2CCOC(Cc3cccc(C(F)(F)F)c3)C2)o1` (centres unmarked) | 73.12% and 62.47% | - |
| 61 | `CNc1cc(N2CCCC2CNCc2c[nH]nc2C(C)(C)C)ncn1` (centres unmarked) | -9.785% | -7.193% and -11.22% |
| 62 | `CCS(=O)(=O)c1ccc(CNc2c(Cl)cccc2C#N)cc1` | 10.28% | - |
| 63 | `CC(C)CC(C)N(C)Cc1nnc(-c2ccco2)o1` (centres unmarked) | - | 3.466% |
| 64 | `Cc1ccccc1N1CCN(C(=O)c2cnc(C3CC3)nc2)C(C)C1` (centres unmarked) | 48.48% | - |
| 65 | `Cc1cnc2c(S(=O)(=O)NCC3CC3)cccc2c1` | 1.275% | - |
| 66 | `CCN(Cc1ccncc1)Cc1cn(-c2ccccc2)nn1` | 7.082% | - |
| 67 | `Cc1nn(C)c2ncnc(N(C)CC3CCN(CC(C)C)C3)c12` (centres unmarked) | - | 71.96% |
| 68 | `Cc1nc[nH]c1CN1CCCN(c2nc3ccccc3s2)CC1` | 14.55% | - |
| 69 | `CCc1cn[nH]c1C1CCN(c2cc(C)c3cc(OC)ccc3n2)CC1` | 26.72% | - |

9 of the entries, repeated:

compound	Mtb glucose medium	Mtb cholesterol medium
Cc1cnc2c(S(=O)(=O)NCC3CC3)cccc2c1	1.275%	-
NC(=O)NC1CCN(Cc2ccc(Br)c(F)c2)CC1	-2.555% and -1.2%	0.568%
[H][C@]12CC[C@]([H])(CN(S(C)(=O)=O)C1)N(C(=O)CCc1n[nH]c3c1CCCC3)C2	-11.95%	-
c1cc(CN2CCCC(c3nnc(-c4cnccn4)o3)C2)ccn1 (centres unmarked)	-	0.703%
NS(=O)(=O)CCN1CCN(c2ccccc2O)CC1	0.07625%	-5.32% and -6.953%
O=C(c1csc(-c2nnc[nH]2)n1)N1CCCCC1Cn1cccn1 (centres unmarked)	-	10.88%
O=C(NCc1ccco1)Nc1cccc(S(=O)(=O)C(F)F)c1	2.705%	2.751%
Cc1cc(C)n(CCCn2cncc2-c2ccc3c(c2)CC(C)N3C)n1.Cl (centres unmarked)	35.05%	23.79% and 28.5%
O=C1CCNc2ncc(-c3ccccc3Cl)cc2CN1C1CC1	35.5%	-